Reference: patent US7030150B2, “Benzimidazole compounds and antiviral uses thereof” (Trimeris, Inc., priority 2001, dated 2006)

These molecules were tested on RSV (assay: RSV plaque reduction (PRA) / syncytia formation antiviral assay in Hep2 cells). Conditions: ratio CC50/IC50, Table 8.
Type: cell-based, Respiratory Syncytial Virus

Row | SMILES | SI
1 | CN(C)Cc1ccc2c(c1)nc(CN1CCOCC1)n2Cc1nc2ccccc2[nH]1 [compound 241] | 26
2 | CC(C)N(Cc1ccc2c(c1)nc(CN1CCOCC1)n2Cc1nc2ccccc2[nH]1)C(C)C [compound 242] | 13
3 | OCc1ccc2c(c1)nc(CN1CCOCC1)n2Cc1nc2ccccc2[nH]1 [compound 243] | 170
4 | CCCCCCCCN(CCCCCCCC)Cc1ccc2c(c1)nc(CN1CCOCC1)n2Cc1nc2ccccc2[nH]1.O=C(O)C(F)(F)F [compound 244] | 1.4
5 | N#CCc1ccc2c(c1)nc(CN1CCOCC1)n2Cc1nc2ccccc2[nH]1 [compound 246] | 330
6 | NC(=O)c1ccc2c(c1)nc(CN1CCOCC1)n2Cc1nc2ccccc2[nH]1 [compound 247] | 45
7 | NNC(=O)c1ccc2c(c1)nc(CN1CCOCC1)n2Cc1nc2ccccc2[nH]1 [compound 248] | 13
8 | COC(=O)c1ccc2c(c1)nc(CN1CCOCC1)n2Cc1nc2ccccc2[nH]1.Cl [compound 249] | 650
9 | CCCCN(CCCC)CCNCc1ccc2c(c1)nc(CN1CCOCC1)n2Cc1nc2ccccc2[nH]1 [compound 250] | 13
10 | COCCN(C)Cc1ccc2c(c1)nc(CN1CCOCC1)n2Cc1nc2ccccc2[nH]1 [compound 251] | 13
11 | COCCOCCOCCOCc1ccc2c(c1)nc(CN1CCOCC1)n2Cc1nc2ccccc2[nH]1 [compound 253] | 13
12 | c1ccc2c(c1)CN(Cc1ccc3c(c1)nc(CN1CCOCC1)n3Cc1nc3ccccc3[nH]1)C2 [compound 254] | 600
13 | Clc1ccccc1N1CCN(Cc2ccc3c(c2)nc(CN2CCOCC2)n3Cc2nc3ccccc3[nH]2)CC1.O=C(O)C(F)(F)F [compound 255] | 47
14 | O=C(O)C(F)(F)F.O=C(c1ccco1)N1CCN(Cc2ccc3c(c2)nc(CN2CCOCC2)n3Cc2nc3ccccc3[nH]2)CC1 [compound 256] | 71
15 | CN1CCN(Cc2ccc3c(c2)nc(CN2CCOCC2)n3Cc2nc3ccccc3[nH]2)CC1 [compound 258] | 13
16 | CN(Cc1ccccc1)Cc1ccc2c(c1)nc(CN1CCOCC1)n2Cc1nc2ccccc2[nH]1 [compound 259] | 13
17 | O=C(O)C(F)(F)F.c1ccc2[nH]c(Cn3c(CN4CCOCC4)nc4cc(CN5CCOCC5)ccc43)nc2c1 [compound 260] | 13
18 | c1ccc2[nH]c(Cn3c(CN4CCOCC4)nc4cc(CN5CCCCC5)ccc43)nc2c1 [compound 261] | 13
19 | NC(=O)CNC(=O)c1ccc2c(c1)nc(CN1CCOCC1)n2Cc1nc2ccccc2[nH]1 [compound 267] | 13
20 | O=C(O)c1ccc2nc(CN3CCOCC3)n(Cc3nc4ccccc4[nH]3)c2c1 [compound 269] | 30
21 | COC(=O)c1ccc2nc(CN3CCOCC3)n(Cc3nc4ccccc4[nH]3)c2c1.Cl [compound 270] | 10000

Same assay, conditions: ratio CC50/IC50, Tables 1-7

Row | SMILES | Selective Index
22 | CCOC(=O)C1CCN(Cc2nc3ccccc3n2Cc2nc3ccccc3[nH]2)CC1 [compound 203] | 175.4
23 | c1ccc(CC2=NCCN2Cc2nc3ccccc3n2Cc2nc3ccccc3[nH]2)cc1 [compound 204] | 58.8
24 | CC1CC(C)CN(Cc2nc3ccccc3n2Cc2nc3ccccc3[nH]2)C1 (stereo not drawn) [compound 205] | 1000
25 | c1ccc2c(c1)CCN(Cc1nc3ccccc3n1Cc1nc3ccccc3[nH]1)C2 [compound 206] | 35.7
26 | CC1C=CC(C)N1Cc1nc2ccccc2n1Cc1nc2ccccc2[nH]1 (stereo not drawn) [compound 207] | 526.3
27 | O=C(OCc1ccccc1)N1CCN(Cc2nc3ccccc3n2Cc2nc3ccccc3[nH]2)CC1 [compound 208] | 833.3
28 | OCC1CCCN1Cc1nc2ccccc2n1Cc1nc2ccccc2[nH]1 (stereo not drawn) [compound 209] | 10000
29 | OCC1CCCCN1Cc1nc2ccccc2n1Cc1nc2ccccc2[nH]1 (stereo not drawn) [compound 210] | 32
30 | OCC1CCCN(Cc2nc3ccccc3n2Cc2nc3ccccc3[nH]2)C1 (stereo not drawn) [compound 211] | 152.4
31 | OCCC1CCCCN1Cc1nc2ccccc2n1Cc1nc2ccccc2[nH]1 (stereo not drawn) [compound 213] | 5882.4
32 | c1ccc2[nH]c(Cn3c(CN4CCC5CCCCC5C4)nc4ccccc43)nc2c1 (stereo not drawn) [compound 214] | 12.5
33 | FC(F)(F)c1cnc(N2CCCN(Cc3nc4ccccc4n3Cc3nc4ccccc4[nH]3)CC2)c(Cl)c1 [compound 215] | 66.7
34 | OCCOCCN1CCN(Cc2nc3ccccc3n2Cc2nc3ccccc3[nH]2)CC1 [compound 216] | 47
35 | c1ccc2[nH]c(Cn3c(CN4CCC(C5CCNCC5)CC4)nc4ccccc43)nc2c1 [compound 217] | 14.1
36 | O=CN1CCN(Cc2nc3ccccc3n2Cc2nc3ccccc3[nH]2)CC1 [compound 218] | 1000
37 | FC(F)(F)c1cccc(N2CCN(Cc3nc4ccccc4n3Cc3nc4ccccc4[nH]3)CC2)c1 [compound 219] | 769.2
38 | Oc1ccc(N2CCN(Cc3nc4ccccc4n3Cc3nc4ccccc4[nH]3)CC2)cc1 [compound 220] | 666.7

Row | SMILES | Selective Index
39 | O=C(OCc1ccccc1)N1CCN(Cc2nc3ccccc3n2Cc2nc3ccccc3[nH]2)CC1 [compound 221] | 4347.8
40 | c1ccc2[nH]c(Cn3c(CN4CCSC4)nc4ccccc43)nc2c1 [compound 222] | 666.7
41 | COc1cc2c(cc1OC)C(CC#N)N(Cc1nc3ccccc3n1Cc1nc3ccccc3[nH]1)CC2 (stereo not drawn) [compound 223] | 24.4
42 | O=C1CCC(=O)N1Cc1nc2ccccc2n1Cc1nc2ccccc2[nH]1 [compound 225] | 12.5
43 | O=C1c2ccccc2C(=O)N1Cc1nc2ccccc2n1Cc1nc2ccccc2[nH]1 [compound 226] | 6.3
44 | Cc1ccc(N2CCN(Cc3nc4ccccc4n3Cc3nc4ccccc4[nH]3)CC2)c(C)c1 [compound 227] | 12.8
45 | c1ccc2[nH]c(Cn3c(CN4CCC(N5CCCC5)CC4)nc4ccccc43)nc2c1 [compound 228] | 46.2
46 | CC(=O)c1ccc(N2CCN(Cc3nc4ccccc4n3Cc3nc4ccccc4[nH]3)CC2)cc1 [compound 229] | 277.8
47 | CCN1CCN(Cc2nc3ccccc3n2Cc2nc3ccccc3[nH]2)CC1 [compound 230] | 20.8
48 | c1ccc(CN2CCN(Cc3nc4ccccc4n3Cc3nc4ccccc4[nH]3)CC2)cc1 [compound 231] | 7.1
49 | O=C(OCc1ccccc1)N1CCCCN(Cc2nc3ccccc3n2Cc2nc3ccccc3[nH]2)CC1 [compound 232] | 123.5
50 | c1ccc2[nH]c(Cn3c(CN4CCCCCCC4)nc4ccccc43)nc2c1 [compound 233] | 6250
51 | c1ccc2[nH]c(Cn3c(CN4CCC5CCCCC5C4)nc4ccccc43)nc2c1 (stereo not drawn) [compound 234] | 60
52 | O=C1C(=O)N(Cc2nc3ccccc3n2Cc2nc3ccccc3[nH]2)c2ccc(Br)cc21 [compound 235] | 18.5
53 | O=C1C(=O)N(Cc2nc3ccccc3n2Cc2nc3ccccc3[nH]2)c2ccc([N+](=O)[O-])cc21 [compound 236] | 12.5
54 | O=C1C(=O)N(Cc2nc3ccccc3n2Cc2nc3ccccc3[nH]2)c2ccc(F)cc21 [compound 237] | 11.4
